A mixed list of measured activities; the numbers were collected in NIAID ChemDB.

All rows: enzyme or target tests

Percent inhibition refers to the dose given; in toxicity tests it is the harm to the cells.

SMILES | read by | measure | strain | protein | tested at | organism | value
O=C(O)[C@]1(O)C=C(c2ccc3ccsc3c2)[C@@H](O)[C@H](O)C1 | - | IC50 | - | Type II dehydroquinase | - | Mycobacterium tuberculosis | 0.85 µM
COc1cc(Cc2cnc(N)nc2N)cc(OC)c1OCCCNc1ccc(S(=O)(=O)c2ccc(N)cc2C)cc1 | - | IC50 | - | Folate biosynthesis | - | Mycobacterium leprae | 10.4 µM
O=c1sn(-c2ccc([N+](=O)[O-])cc2Cl)c(=O)n1C1Cc2ccccc2C1 | HPLC | IC50 | mc2155 | Alanine racemase | - | Mycobacterium smegmatis | >100 µM
CC(C)[C@H]1CO[C@]23CCN(Cc4ccc(Cl)c(C(F)(F)F)c4)C[C@H]2CCC(=O)N13 | resazurin | IC50 | - | NADH dehydrogenase | - | Mycobacterium tuberculosis | <0.1 µM
CC(C)(C)OC(=O)N1CCC2(CC1)CC(=O)c1ccc(OC[C@H](O)Cn3cc(-c4ccccc4)nn3)cc1O2 | gel | inhibition | - | DNA gyrase | 30 µM | Mycobacterium tuberculosis | 51%
CC(C)c1ccc(-n2c(=O)sn(-c3ccc(SC(F)(F)F)cc3)c2=O)cc1 | HPLC | IC50 | mc2155 | Alanine racemase | - | Mycobacterium smegmatis | >100 µM
O=C1C=CC(O)(c2ccccc2)C=C1 | - | IC50 | H37Rv | Thioredoxin reductase | - | Mycobacterium tuberculosis | 971 µM
Cc1ccc(-c2cn(C[C@@H](O)COc3ccc4c(c3)OC3(CCCCC3)CC4=O)nn2)cc1 | gel | inhibition | - | DNA gyrase | 30 µM | Mycobacterium tuberculosis | 47%
O=C(O)[C@]1(O)C=C(c2cn(Cc3ccccc3)nn2)[C@@H](O)[C@H](O)C1 | - | IC50 | - | Type II dehydroquinase | - | Mycobacterium tuberculosis | 3.75 µM
CC(=O)c1cccc(N2C(=O)C[C@@H](C3OC4OC(C)(C)OC4[C@H]3Oc3ccccc3)N(C3CC3)C2=O)c1 | - | inhibition | - | Alpha-glucosidase | 100 µM | Mycobacterium aurum | 47%
Cc1[nH+]c2ccccc2c(=O)n1NC(=O)C(=O)N/N=C/c1ccc(O)c(O)c1O | kinase activity / radiometric | inhibition | - | Protein kinase B | 10 µM | Mycobacterium tuberculosis | 91.5%
Cc1noc(C)c1-n1sc(=O)n(-c2ccc(F)cc2)c1=O | HPLC | IC50 | H37Rv | Alanine racemase | - | Mycobacterium tuberculosis | 0.07 µM
C[C@H]1COC2(CCN(c3nc(=O)c4cc(C(F)(F)F)cc([N+](=O)[O-])c4s3)CC2)O1 | fluorescence / absorbance | IC50 | - | Cytochrome P450 2D6 | - | Mycobacterium tuberculosis | 2.21 µM
CC(C)[C@H]1CO[C@]23CCN(Cc4ccc(Cl)c(Cl)c4)C[C@H]2CCC(=O)N13 | resazurin | IC50 | - | NADH dehydrogenase | - | Mycobacterium tuberculosis | <0.1 µM
O=c1[nH]c(=O)c2[nH]c(=O)n(C[C@H](O)[C@H](O)[C@H](O)CO)c2[nH]1 | - | Ki | - | Lumazine synthase | - | Mycobacterium tuberculosis | 9.1 µM
O=C(Nc1ccccc1)N1CCc2c(c(-c3ccccc3)nn2Cc2cn(-c3ccccc3[N+](=O)[O-])nn2)C1 | absorbance | IC50 | - | Pantothenate synthetase | - | Mycobacterium tuberculosis | 4.94 µM
O=C(O)[C@]1(O)C=C(c2cccc(C(F)(F)F)c2)[C@@H](O)[C@H](O)C1 | - | Ki | - | Type II dehydroquinase | - | Mycobacterium tuberculosis | 95 µM
Cc1cn([C@@H]2O[C@H](COP(=O)([O-])[O-])[C@@H](CN=[N+]=[N-])[C@H]2O)c(=O)[nH]c1=O | - | Ki | - | Thymidine monophosphate kinase | - | Mycobacterium tuberculosis | >1000 µM
CCCCCCCC/C=C\CCCCCCCCN1C(=O)N(Cc2ccccc2)C(=O)C[C@H]1C1OC2OC(C)(C)OC2[C@H]1Oc1ccccc1 | - | inhibition | - | Alpha-glucosidase | 100 µM | Mycobacterium aurum | 48.5%
NCCCOc1ccc(Nc2ncc3ccc(=O)n(C4CCCC4)c3n2)cc1 | kinase activity / radiometric | IC50 | - | Protein kinase B | - | Mycobacterium tuberculosis | 0.445 µM
O=C(Nc1ccccc1)N1CCc2c(c(-c3ccccc3)nn2Cc2cn(-c3ccc(F)cc3)nn2)C1 | absorbance | IC50 | - | Pantothenate synthetase | - | Mycobacterium tuberculosis | 3.41 µM
CCCCCCCCCCCCN(C(=O)Nc1ccc(F)cc1)[C@@H](CC(=O)OCC)C1O[C@@H]2OC(C)(C)O[C@@H]2[C@H]1Oc1ccccc1 | - | inhibition | - | Alpha-glucosidase | 100 µM | Mycobacterium aurum | 20.9%
O=C(O)[C@]1(O)C=C(c2ccc3c(c2)NON3)[C@@H](O)[C@H](O)C1 | - | IC50 | - | Type II dehydroquinase | - | Mycobacterium tuberculosis | 1.95 µM
C/C(=N/NC(=N)N)c1cc(NC(=O)c2ccc(C(=O)Nc3cc(/C(C)=N\NC(=N)N)cc(/C(C)=N/NC(=N)N)c3)s2)cc(/C(C)=N/NC(=N)N)c1 | kinase activity / radiometric | inhibition | - | Protein kinase B | 10 µM | Mycobacterium tuberculosis | 98.4%
O=c1sn(-c2ccc([N+](=O)[O-])cc2Cl)c(=O)n1CC1CC1 | HPLC | IC50 | mc2155 | Alanine racemase | - | Mycobacterium smegmatis | 0.43 µM
COC1(c2nc3ccccc3s2)C=CC(=NS(=O)(=O)c2ccc(C)cc2)C=C1 | - | IC50 | H37Rv | Thioredoxin reductase | - | Mycobacterium tuberculosis | >1000 µM
O=C(Nc1ccccc1)N1CCc2c(c(-c3ccccc3)nn2Cc2cn(-c3ccc(C(F)(F)F)cc3)nn2)C1 | absorbance | IC50 | - | Pantothenate synthetase | - | Mycobacterium tuberculosis | 5.04 µM
Cn1c(=O)sn(-c2ccccc2)c1=O | HPLC | IC50 | mc2155 | Alanine racemase | - | Mycobacterium smegmatis | 25.53 µM
O=C(Nc1ccccc1)N1CCc2c(c(-c3ccccc3)nn2Cc2cn(-c3cccc(Cl)c3)nn2)C1 | absorbance | IC50 | - | Pantothenate synthetase | - | Mycobacterium tuberculosis | 1.14 µM
Cc1cn([C@@H]2O[C@H](CO)[C@H]3CNC(=O)O[C@H]32)c(=O)[nH]c1=O | - | Ki | H37Rv | Thymidine monophosphate kinase | - | Mycobacterium tuberculosis | 13.5 µM
O=C(NO)C(O)C(O)C(O)COP(=O)([O-])[O-] | - | Ki | - | Ribose-5-phosphate isomerase | - | Mycobacterium tuberculosis | 40 µM
O=C(Nc1ccccc1)N1CCc2c(c(-c3ccccc3)nn2Cc2cn(-c3ccccc3Br)nn2)C1 | absorbance | IC50 | - | Pantothenate synthetase | - | Mycobacterium tuberculosis | 3.54 µM
O=C1CC2(CCCCC2)Oc2cc(OC[C@H](O)Cn3cc(-c4ccccc4)nn3)ccc21 | gel | inhibition | - | DNA gyrase | 30 µM | Mycobacterium tuberculosis | 68%
O=C(Nc1ccccc1)N1CCc2c(c(-c3ccccc3)nn2Cc2cn(-c3ccccc3F)nn2)C1 | absorbance | IC50 | - | Pantothenate synthetase | - | Mycobacterium tuberculosis | 5.93 µM
O=c1sn(-c2ccccc2C(F)(F)F)c(=O)n1CC1CC1 | HPLC | IC50 | H37Rv | Alanine racemase | - | Mycobacterium tuberculosis | 0.82 µM
O=C1CC[C@@H]2CN(Cc3ccccc3)CC[C@@]23N[C@H]2CCCC[C@@H]2N13 | resazurin | IC50 | - | NADH dehydrogenase | - | Mycobacterium tuberculosis | >1 µM
O=c1[nH]c(=O)c2c([nH]1)n(C[C@H](O)[C@H](O)[C@H](O)CO)c(=O)n2CCCO | - | Ki | - | Lumazine synthase | - | Mycobacterium tuberculosis | 2.6 µM
C=CC(C)(C)c1c(OC)oc(-c2ccccc2)cc1=O | absorbance | inhibition | - | MurE | 500 µM | Mycobacterium tuberculosis | 77%
NNC(=O)c1ccncc1 | - | IC50 | H37RV (INH 10 ug/mL-R) | NADH oxidase | - | Mycobacterium tuberculosis | >1000 µM
O=C1C=CC(O)(c2ccccn2)C=C1 | - | IC50 | H37Rv | Thioredoxin reductase | - | Mycobacterium tuberculosis | 861 µM
[2H]C([2H])([2H])OC(=O)N/C=C/CCCc1cc(O)c(C(=O)/C(C)=C/c2cnc(Oc3ccc(-c4ccccc4)cc3)s2)c(=O)o1 | nucleotide incorporation / fluorescence | IC50 | - | RNA polymerase | - | Mycobacterium tuberculosis | >6 µM

For reference, 3 entries again:

SMILES,read by,measure,strain,protein,tested at,organism,value
Cc1[nH+]c2ccccc2c(=O)n1NC(=O)C(=O)N/N=C/c1ccc(O)c(O)c1O,kinase activity / radiometric,inhibition,-,Protein kinase B,10 µM,Mycobacterium tuberculosis,91.5%
O=c1sn(-c2ccc([N+](=O)[O-])cc2Cl)c(=O)n1C1Cc2ccccc2C1,HPLC,IC50,mc2155,Alanine racemase,-,Mycobacterium smegmatis,>100 µM
CC(C)[C@H]1CO[C@]23CCN(Cc4ccc(Cl)c(Cl)c4)C[C@H]2CCC(=O)N13,resazurin,IC50,-,NADH dehydrogenase,-,Mycobacterium tuberculosis,<0.1 µM

ICn: concentration for n% inhibition. Lines come from different laboratories, so protocols vary. An empty or dashed field is not shown.